Source: publication PMC4992889, “The viral capping enzyme nsP1: a novel target for the inhibition of chikungunya virus infection” (Scientific Reports, 2016)

Tested on: WT CHIKV LS3
Type: cell-based
Conditions: concentrations above 63 μM; 28 h p.i.

CC(=O)c1cccc(-n2nnc3c(=O)[nH]c(C)nc32)c1 [MADTP-314, 3-(3′-acetylphenyl)-5-methyl-3H-[1,2,3]triazolo[4,5-d]pyrimidin-7(6H)-one]
expression of CHIKV proteins (nsP1, E2E3), WT virus: hardly detectable expression of CHIKV proteins
